Measured values from several laboratories, pooled; numbers as filed in NIAID ChemDB.

Shared fields: growth or infection tests; species: HIV-1; method: RT activity; read-out: EC50

Lines come from different laboratories, so protocols vary. Blank or dashed fields: not listed here. ECn: concentration that inhibits the pathogen or its effect by n%.

compound	changes	cell line	strain or isolate	result
Fc1cccc(F)c1C1SCc2nc3ccccc3n21		PBL	WEJO	0.69 µM
CC(=O)SCCOP(=O)(OCCSC(C)=O)OC[C@H]1O[C@@H](n2cc(C)c(=O)[nH]c2=O)C[C@@H]1N=[N+]=[N-]		CEM + CEM TK-	LAI	>100 µM
CCN(CC)C(=O)OCC1CN(C(=O)c2cc(OC)c(OC)c(OC)c2)CCN1C(=O)c1cc(OC)c(OC)c(OC)c1		Macrophage + Monocytes/macrophages	DAS Primary isolate	10 µM
CC[C@H]1OC(=O)[C@H](C)[C@@H](O[C@H]2C[C@@](C)(OC)[C@@H](O)[C@H](C)O2)[C@H](C)[C@@H](O[C@@H]2O[C@H](C)C[C@H](N(C)C)[C@H]2O)[C@](C)(O)C[C@@H](C)C(=O)[C@H](C)[C@@H](O)[C@]1(C)O		CEM	LAV-1	<107 µg/mL
CCCCCCCCCCC1CN(C(=O)c2cc(OC)c(OC)c(OC)c2)CCN1C(=O)c1cc(OC)c(OC)c(OC)c1		Macrophage + Monocytes/macrophages	BaL	>10 µM
Oc1cccc(O)c1-c1c2nc(c(-c3c(O)cccc3O)c3ccc([nH]3)c(-c3c(O)cccc3O)c3nc(c(-c4c(O)cccc4O)c4ccc1[nH]4)C=C3)C=C2		PBMC	LAV	>100 µM
Cc1ccnc2c1NC(=O)c1cccnc1N2C1CC1		PBL (activated) + PBL	IIIB	<0.3 µM
COc1ccc(C[C@H](NC(=O)c2cccc(O)c2C)[C@H](O)C(=O)N2CSC(C)(C)[C@H]2C(=O)NCc2ccccc2C)cc1	PR-L10I M46I I54V L63P A71V V82A L90M	PBMC	1026-40 PI-resistant	0.099 µM
Cc1ccnc2c1NC(=O)c1cccnc1N2C1CC1		PBMC	Subtype B isolate	0.04 µM
CO[C@H]1O[C@@H](n2ccc(=O)[nH]c2=O)C[C@@H]1N=[N+]=[N-]	RT-S156A	MT-2	HX(RT-S156A)	0.76 µM
Cc1cn([C@H]2C[C@H](N=[N+]=[N-])[C@@H](CO)O2)c(=O)[nH]c1=O		CEM	NL4-3	<0.045 µM
Nc1nc(=O)n([C@H]2C[C@H](O)[C@@H](CO)O2)cc1-c1ccc(-c2ccccc2)s1		H9	IIIB	>10 µg/mL
COc1ccc(-c2c3nc(c(-c4ccc(OC)cc4OC)c4ccc([nH]4)c(-c4ccc(OC)cc4OC)c4nc(c(-c5ccc(OC)cc5OC)c5ccc2[nH]5)C=C4)C=C3)c(OC)c1		PBMC	LAV	>100 µM
Cc1ccnc2c1NC(=O)c1cccnc1N2C1CC1		MT-2	HX	0.18 µM
Cc1cn([C@H]2C[C@H](N=[N+]=[N-])[C@@H](CO)O2)c(=O)[nH]c1=O		PBL (resting) + PBL	SF162 R5	>4 µM
Nc1nc(=O)n([C@@H]2CS[C@H](CO)O2)cc1F		PBMC	LAI	0.03 µM
CC(=O)SCCOP(=O)(OCCSC(C)=O)OC[C@@H]1CC[C@H](n2cnc3c(N)ncnc32)O1		CEM + CEM-SS	LAI	0.00056 µM
CCCCCCc1ccsc1-c1cn([C@H]2C[C@H](OC(=O)c3ccc(C)cc3)[C@@H](COC(=O)c3ccc(C)cc3)O2)c(=O)[nH]c1=O		H9	IIIB	<10 µg/mL
O=c1[nH]cnc2c1ncn2[C@H]1CC[C@@H](CO)O1		PBL (resting) + PBL	IIIB	<0.1 µM
Cc1cccc(C)c1OCC(=O)N[C@@H](Cc1ccccc1)[C@@H](O)C[C@H](Cc1ccccc1)NC(=O)[C@H](C(C)C)N1CCCNC1=O	PR-L10I M46I I54V L63P A71V V82A L90M	PBMC	1026-40 PI-resistant	0.398 µM
CC(C)CN(C[C@@H](O)[C@H](Cc1ccccc1)NC(=O)[C@H](CC(N)=O)NC(=O)c1ccc2ccccc2n1)C(=O)NC(C)(C)C		CEM	LAV-1	<1.18 µM
Nc1nc2cc(Cl)c(Cl)cc2n1Cc1ccc(Cl)cc1		CEM + CEM-SS	IIIB	10 µM
Nc1nc2c(ncn2C2CC(CCP(=O)(O)O)(C(F)(F)F)CO2)c(=O)[nH]1		PBMC	LAI	53 µM
CC(=O)SCCOP(=O)(OCCSC(C)=O)OC[C@@H]1CC[C@H](n2cc(C)c(=O)[nH]c2=O)O1		CEM + CEM TK-	LAI	0.5 µM
Cc1cn([C@H]2C[C@H](N=[N+]=[N-])[C@@H](CO)O2)c(=O)[nH]c1=O		PBMC	M48 ddI-resistant	0.73 µM
CC(C)CN(C[C@@H](O)[C@H](Cc1ccccc1)NC(=O)O[C@H]1CCOC1)S(=O)(=O)c1ccc(N)cc1	PR-L10R M46I L63P A71V V82T I84V	PBMC	052-52 PI-resistant	0.535 µM
Nc1ncnc2c1ncn2CCOCP(=O)(O)O		PBMC	LAI	4.25 µM
Cc1c(O)cccc1C(=O)N[C@@H](CSc1ccccc1)[C@H](O)CN1C[C@H]2CCCC[C@H]2C[C@H]1C(=O)NC(C)(C)C	PR-L10I M46I I54V L63P V82F L90M	PBMC	1002-60 PI-resistant	1.235 µM
COc1cc(C(=O)N2CCN(C(=O)c3cc(OC)c(OC)c(OC)c3)C(COC(=O)C(C)(C)C)C2)cc(OC)c1OC		Macrophage + Monocytes/macrophages	BaL	>100 µM
CC(=O)SCCOP(=O)(OCCSC(C)=O)OC[C@@H]1CC[C@H](n2cnc3c(=O)[nH]cnc32)O1		MT-4	LAI	3.4 µM
Cc1cn([C@H]2C[C@H](N=[N+]=[N-])[C@@H](CO)O2)c(=O)[nH]c1=O		PBMC	Group O isolate	<0.03 µM
Nc1nc(=O)n([C@H]2C[C@H](O)[C@@H](CO)O2)cc1-c1ccccn1		H9	IIIB	>10 µg/mL
Cc1ccccc1CNC(=O)[C@H]1N(C(=O)[C@@H](O)[C@H](Cc2ccccc2)NC(=O)c2cccc(O)c2C)CSC1(C)C		PBMC	IIIB	0.017 µM
Cc1cn([C@H]2CC[C@@H](CO)O2)c(=O)[nH]c1=O		CEM + CEM-SS	LAI	4 µM
Nc1cccc(-c2c3nc(c(-c4cccc(N)c4)c4ccc([nH]4)c(-c4cccc(N)c4)c4nc(c(-c5cccc(N)c5)c5ccc2[nH]5)C=C4)C=C3)c1		PBMC	LAV	11.1 µM
Nc1nc(=O)n([C@@H]2CS[C@H](CO)O2)cc1F		PBMC	M6 (AZT-resistant)	0.002 µM
COc1ccccc1-c1c2nc(c(-c3ccccc3OC)c3ccc([nH]3)c(-c3ccccc3OC)c3nc(c(-c4ccccc4OC)c4ccc1[nH]4)C=C3)C=C2		PBMC	LAV	41.1 µM
Nc1nc(=O)n([C@@H]2C[C@H](O)[C@@H](CO)O2)cc1-c1nccs1		H9	IIIB	>10 µg/mL
COc1cccc(C[C@H](NC(=O)c2cccc(O)c2C)[C@H](O)C(=O)N2CSC(C)(C)[C@H]2C(=O)NCc2c(C)cccc2C)c1	PR-L10I M46I I54V L63P V82F L90M	PBMC	1002-60 PI-resistant	0.0045 µM
Oc1ccccc1-c1c2nc(c(-c3ccccc3O)c3ccc([nH]3)c(-c3ccccc3O)c3nc(c(-c4ccccc4O)c4ccc1[nH]4)C=C3)C=C2		PBMC	LAV	3.1 µM
Nc1ncnc2c1ncn2C1CC(CCP(=O)(O)O)(C(F)(F)F)CO1		PBMC	LAI	36 µM

Repeating the final 4 entries:

{"compound": "Nc1nc(=O)n([C@@H]2C[C@H](O)[C@@H](CO)O2)cc1-c1nccs1", "cell line": "H9", "strain or isolate": "IIIB", "result": ">10 µg/mL"}
{"compound": "COc1cccc(C[C@H](NC(=O)c2cccc(O)c2C)[C@H](O)C(=O)N2CSC(C)(C)[C@H]2C(=O)NCc2c(C)cccc2C)c1", "changes": "PR-L10I M46I I54V L63P V82F L90M", "cell line": "PBMC", "strain or isolate": "1002-60 PI-resistant", "result": "0.0045 µM"}
{"compound": "Oc1ccccc1-c1c2nc(c(-c3ccccc3O)c3ccc([nH]3)c(-c3ccccc3O)c3nc(c(-c4ccccc4O)c4ccc1[nH]4)C=C3)C=C2", "cell line": "PBMC", "strain or isolate": "LAV", "result": "3.1 µM"}
{"compound": "Nc1ncnc2c1ncn2C1CC(CCP(=O)(O)O)(C(F)(F)F)CO1", "cell line": "PBMC", "strain or isolate": "LAI", "result": "36 µM"}